Experiments:
Assay in all cases: ITC, titration against HAUSP TRAF domain, 20 °C
vIRF4^153-216 = molecular target: T1, vIRF4^153-216 (Kaposi's-sarcoma-associated-herpesvirus …, UniProt Q2HR73 153-216)
T1 sequence: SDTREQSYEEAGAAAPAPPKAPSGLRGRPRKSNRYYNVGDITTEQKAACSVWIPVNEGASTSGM

[1] = molecular target: vIRF4^[…]/Δ202-216/Δ237-256 (Kaposi's-sarcoma-associated-herpesvirus …)
vIRF4^[…]/Δ202-216 = vIRF4^[…]/Δ202-216 (Kaposi's-sarcoma-associated-herpesvirus …)

B1: HAUSP TRAF domain (HAUSP^62-205) (enzyme)
chain: DTSWRSEATFQFTVERFSRLSESVLSPPCFVRNLPWKIMVMPRFYPDRPHQKSVGFFLQCNAESDSTSWSCHAQAVLKIINYRDDEKSFSRRISHLFFHKENDWGFSNFMAWSEVTDPEKGFIDDDKVTFEVFVQADAPHGVAW
vIRF4^153-216
  Ka: 1.84e+06 M⁻¹
  Kd: 0.54 µM
[1]
  Ka: 250000 M⁻¹
  Kd: 4.03 µM
vIRF4^[…]/Δ202-216
  Ka: 290000 M⁻¹
  Kd: 3.45 µM
